Test results as given in paper PMC11274511, “Synthesis of Substituted 1,2,4-Triazole-3-Thione Nucleosides Using E. coli Purine Nucleoside Phosphorylase” (Biomolecules, 2024).

Tested on: HSV-1/L2/R^ACV
Details: Strain HSV-1/L2/R^ACV
Procedure: Herpes simplex virus type 1 (HSV-1) strain L2 was obtained from the State’s collection of viruses at FSBI «N. F. Gamaleya National Research Centre for Epidemiology and Microbiology, Russian Ministry of Health, Russia» («D. I. Ivanovsky Institute of Virology» subdivision).
Antiviral activity in vitro was measured by the method of the cytopathic effect (CPE) inhibition assay. In 96-well plastic plates with the 24 h generated cell monolayer, 2-fold serial dilutions of the compounds were prepared. Cells infected with MOI of 0.1 PFU/cell were incubated at 37 °C in 5% CO2 atmosphere. […] Antiviral activity was assessed by determining of IC50 and IC95.
Three controls were used: (1) Toxicity control. Uninfected cells were incubated in the presence of the drug in the same concentration range as in the experiment. (2) Virus control. […] (3) Cell control. Uninfected cell cultures were incubated in the maintenance medium, which contained no drug.

Substance: 5-Phenyl-1,2,4-triazole-3-thione [Compound 4]
- SI (ratio of CC50 to IC50): >2
